Consider one substance from US10408836B2 (priority 2013, dated 2019).

This assay relates to influenza virus. The format is binding.

With “EGFR: epidermal growth factor receptor, recombinant host protein used as capturing agent”, the “viral capture, ranking of receptors” value is on record as “least effective”.
